Consider 12 compounds from paper PMC8445433, “Broadly directed SARS-CoV-2-specific CD4+ T cell response includes frequently detected peptide specificities within the membrane and nucleoprotein in patients with acute and resolved COVID-19” (PLoS Pathogens, 2021).

Holding throughout (test): biochemical
The target in one assay is DQA1*03:01 DQB1*03:02 (Homo sapiens, UniProt P01909+P01920, A209T/A45G/C70Q/D89A/DUP78-78/E183D/E77G/F237L/G63E/H199R/I129T/K197E/L178F/L74F/L98V/Q57E/Q76R/S185I/S97I/T217I/T49S/V73L/Y58L). Type of assay: binding. Conditions: read-out: IC50 DQA1*03:01 DQB1*03:02.
In another assay the target is DQA1*01:01 DQB1*05:01 (Homo sapiens, UniProt P01909+P01920, A157S/A45G/A70V/C70R/D89V/E106S/E118A/E183D/E77G/F83G/G63E/H151Q/H199R/H252R/H253Q/I129T/I235V/I88M/INS77G/K197Q/L107V/L117V/L119Y/L178F/L71W/L74F/L85Q/L91A/L98M/M46L/N214S/P87R/Q116E/Q256R/Q57E/Q76K/R102G/R240Q/R75S/R78G/S102Y/S185I/S41F/S97I/T103A/T109R/T121G/T122I/T172A/T86R/V148I/V68A/V73E/Y34C/Y58G/Y62H). In kind it is binding. The settings on record: read-out: IC50 DQA1*01:01 DQB1*05:01.

The next assay addresses DQA1*01:02 DQB1*06:02 (Homo sapiens, UniProt P01909+P01920, A157G/A45G/C70R/E118A/E183D/E77G/F83G/G63E/H151Q/H199R/H252R/H253Q/I129T/I235V/I88M/INS77G/K197Q/L117V/L119F/L178F/L71W/L74F/L85Q/L91A/L98M/N214S/P87R/Q116E/Q76K/R102G/R240Q/R75S/R78G/S102Y/S185I/S41F/S97I/T121G/T122I/T172A/T86R/V229M/V68A/V73E/Y34C/Y41F/Y58L). In kind it is binding. The settings on record: read-out: IC50 DQA1*01:02 DQB1*06:02.

The target in a further assay is DQA1*05:01 DQB1*02:01 (Homo sapiens, UniProt P01909+P01920, A45G/A70V/D89A/E106A/E77G/E98D/H199R/L107V/N214S/P84L/P87L/T103K/T109R/T172A/T60S/V78E/V99I/Y58L/Y62S/Y69I/Y79F).

In general, IC50 refers to the concentration at which inhibition is half-maximal. As for `CC(C)C[C@H](NC(=O)[C@H](CC(N)=O)NC(=O)[C@H](CCCCN)NC(=O)[C@@H](NC(=O)[C@H](CCCNC(=N)N)NC(=O)[C@H](CO)NC(=O)[C@H](Cc1ccc(O)cc1)NC(=O)[C@@H](NC(=O)[C@H](Cc1ccc(O)cc1)NC(=O)[C@H](Cc1ccccc1)NC(=O)[C@H](CO)NC(=O)[C@@H]1CCCN1C(=O)[C@H](CCCCN)NC(=O)[C@@H](NC(=O)[C@@H](N)CC(C)C)C(C)C)C(C)C)C(C)C)C(=O)O` [Env_11], the IC50 is over 40 µM on DQA1*03:01 DQB1*03:02, over 40 µM on DQA1*01:01 DQB1*05:01, 24.4 µM on DQA1*01:02 DQB1*06:02 and over 40 µM on DQA1*05:01 DQB1*02:01.
Turning to `CC[C@H](C)[C@H](NC(=O)[C@H](CCCNC(=N)N)NC(=O)[C@H](CC(C)C)NC(=O)[C@H](Cc1c[nH]cn1)NC(=O)CNC(=O)[C@@H](N)CCCNC(=N)N)C(=O)N[C@@H](C)C(=O)NCC(=O)N[C@@H](Cc1c[nH]cn1)C(=O)N[C@@H](Cc1c[nH]cn1)C(=O)N[C@@H](CC(C)C)C(=O)NCC(=O)N[C@@H](CCCNC(=N)N)C(=O)N[C@@H](CS)C(=O)N[C@@H](CC(=O)O)C(=O)O` [Mem_30], the half-inhibitory concentration (IC50) is over 40 µM at DQA1*03:01 DQB1*03:02, 37.7 µM at DQA1*01:01 DQB1*05:01, over 40 µM at DQA1*01:02 DQB1*06:02 and over 40 µM against DQA1*05:01 DQB1*02:01.
On to `CC[C@H](C)[C@H](NC(=O)[C@H](CCC(=O)O)NC(=O)[C@@H](N)CCCCN)C(=O)N[C@H](C(=O)N[C@H](C(=O)N[C@@H](C)C(=O)N[C@H](C(=O)N[C@@H](CO)C(=O)N[C@@H](CCCNC(=N)N)C(=O)N[C@H](C(=O)N[C@@H](CC(C)C)C(=O)N[C@@H](CO)C(=O)N[C@@H](Cc1ccc(O)cc1)C(=O)N[C@@H](Cc1ccc(O)cc1)C(=O)N[C@@H](CCCCN)C(=O)O)[C@@H](C)O)[C@@H](C)O)C(C)C)[C@@H](C)O` [Mem_34], for which the IC50 at DQA1*03:01 DQB1*03:02 was 17.4 µM; on DQA1*01:01 DQB1*05:01, over 40 µM; on DQA1*01:02 DQB1*06:02 it was 1.83 µM; at DQA1*05:01 DQB1*02:01, 13.6 µM.
On the same counts, the results for `CC(C)C[C@H](NC(=O)[C@H](C)NC(=O)[C@@H](NC(=O)[C@H](Cc1ccccc1)NC(=O)[C@H](Cc1c[nH]c2ccccc12)NC(=O)[C@@H](N)CO)[C@@H](C)O)C(=O)N[C@H](C(=O)N[C@@H](CCC(N)=O)C(=O)N[C@@H](Cc1c[nH]cn1)C(=O)NCC(=O)N[C@@H](CCCCN)C(=O)N[C@@H](CCC(=O)O)C(=O)N[C@@H](CC(=O)O)C(=O)N[C@@H](CC(C)C)C(=O)N[C@@H](CCCCN)C(=O)O)[C@@H](C)O` [Ncl_11] are 19.7 µM, over 40 µM, 0.952 µM and 30.4 µM.
Consider `CC(C)C[C@H](NC(=O)[C@H](Cc1ccc(O)cc1)NC(=O)[C@H](Cc1ccc(O)cc1)NC(=O)[C@H](Cc1ccccc1)NC(=O)[C@H](Cc1ccc(O)cc1)NC(=O)[C@H](Cc1c[nH]c2ccccc12)NC(=O)[C@H](CCCNC(=N)N)NC(=O)[C@@H]1CCCN1)C(=O)NCC(=O)N[C@H](C(=O)NCC(=O)N1CCC[C@H]1C(=O)N[C@@H](CCC(=O)O)C(=O)N[C@@H](C)C(=O)NCC(=O)O)[C@@H](C)O` [Ncl_22], for which the IC50 at DQA1*03:01 DQB1*03:02 came out at 0.414 µM; at DQA1*01:01 DQB1*05:01, 2.24 µM; on DQA1*01:02 DQB1*06:02, 7.88 µM; against DQA1*05:01 DQB1*02:01, 0.079 µM.
On the same counts, the results for `CC[C@H](C)[C@H](NC(=O)CNC(=O)[C@H](CC(=O)O)NC(=O)[C@H](CCCCN)NC(=O)[C@H](CC(N)=O)NC(=O)[C@H](C)NC(=O)CNC(=O)[C@H](Cc1ccc(O)cc1)NC(=O)[C@@H]1CCCN1C(=O)[C@@H](N)CC(C)C)C(=O)N[C@H](C(=O)N[C@@H](Cc1c[nH]c2ccccc12)C(=O)N[C@H](C(=O)N[C@@H](C)C(=O)N[C@H](C(=O)O)[C@@H](C)O)C(C)C)[C@@H](C)CC` [Ncl_25] are 3.8 µM, over 40 µM, 0.203 µM and 11.7 µM.
On the same counts, the results for `CC[C@H](C)[C@H](NC(=O)CNC(=O)[C@H](CC(=O)O)NC(=O)[C@H](CCCCN)NC(=O)[C@@H](N)CC(N)=O)C(=O)N[C@H](C(=O)N[C@@H](Cc1c[nH]c2ccccc12)C(=O)N[C@H](C(=O)N[C@@H](C)C(=O)N[C@H](C(=O)N[C@@H](CCC(=O)O)C(=O)NCC(=O)N[C@@H](C)C(=O)N[C@@H](CC(C)C)C(=O)N[C@@H](CC(N)=O)C(=O)O)[C@@H](C)O)C(C)C)[C@@H](C)CC` [Ncl_26] are 0.103 µM, over 40 µM, 2.64 µM and 0.422 µM.
Turning to `CC(C)C[C@H](NC(=O)[C@H](CCC(N)=O)NC(=O)[C@H](CC(N)=O)NC(=O)[C@H](CC(C)C)NC(=O)[C@H](CCCNC(=N)N)NC(=O)[C@H](CC(=O)O)NC(=O)[C@H](CC(C)C)NC(=O)[C@H](CC(C)C)NC(=O)[C@H](CC(C)C)NC(=O)[C@H](CC(C)C)NC(=O)[C@H](C)NC(=O)[C@H](CC(C)C)NC(=O)[C@H](C)NC(=O)[C@H](C)NC(=O)[C@@H](N)CC(=O)O)C(=O)O` [Ncl_44], the IC50 was 0.86 µM at DQA1*03:01 DQB1*03:02, 8.46 µM on DQA1*01:01 DQB1*05:01, 2.5 µM on DQA1*01:02 DQB1*06:02 and 2.49 µM against DQA1*05:01 DQB1*02:01.
As for `CSCC[C@H](NC(=O)[C@H](CCCCN)NC(=O)[C@H](CO)NC(=O)[C@H](CCC(=O)O)NC(=O)[C@H](CC(C)C)NC(=O)[C@H](CCC(N)=O)NC(=O)[C@H](CC(N)=O)NC(=O)[C@H](CC(C)C)NC(=O)[C@H](CCCNC(=N)N)NC(=O)[C@H](CC(=O)O)NC(=O)[C@H](CC(C)C)NC(=O)[C@H](CC(C)C)NC(=O)[C@H](CC(C)C)NC(=O)[C@@H](N)CC(C)C)C(=O)N[C@@H](CO)C(=O)O` [Ncl_45], the IC50 turned out to be 11.9 µM at DQA1*03:01 DQB1*03:02, 23.1 µM on DQA1*01:01 DQB1*05:01, 8.08 µM on DQA1*01:02 DQB1*06:02 and 3.31 µM against DQA1*05:01 DQB1*02:01.
`CC[C@H](C)[C@H](NC(=O)[C@H](Cc1c[nH]cn1)NC(=O)[C@H](CCCCN)NC(=O)[C@H](CC(N)=O)NC(=O)[C@H](CC(C)C)NC(=O)[C@H](CC(C)C)NC(=O)[C@@H](NC(=O)[C@@H](NC(=O)[C@H](CCC(N)=O)NC(=O)[C@H](CC(=O)O)NC(=O)[C@H](CCCCN)NC(=O)[C@@H](N)Cc1ccccc1)C(C)C)[C@@H](C)CC)C(=O)N[C@@H](CC(=O)O)C(=O)N[C@@H](C)C(=O)N[C@@H](Cc1ccc(O)cc1)C(=O)O` [Ncl_70]: the IC50 on DQA1*03:01 DQB1*03:02 was determined as 9.18 µM; on DQA1*01:01 DQB1*05:01, 6.01 µM; on DQA1*01:02 DQB1*06:02, 8.6 µM; on DQA1*05:01 DQB1*02:01 it was 30.7 µM.
On the same counts, the results for `CC[C@H](C)[C@H](NC(=O)[C@H](CCC(N)=O)NC(=O)[C@H](CC(=O)O)NC(=O)[C@@H](N)CC(=O)O)C(=O)NCC(=O)N[C@@H](Cc1ccc(O)cc1)C(=O)N[C@@H](Cc1ccc(O)cc1)C(=O)N[C@@H](CCCNC(=N)N)C(=O)N[C@@H](CCCNC(=N)N)C(=O)N[C@@H](C)C(=O)N[C@H](C(=O)N[C@@H](CCCNC(=N)N)C(=O)N[C@@H](CCCNC(=N)N)C(=O)N[C@H](C(=O)N[C@@H](CCCNC(=N)N)C(=O)O)[C@@H](C)CC)[C@@H](C)O` [Ncl_P17] are over 40 µM, over 40 µM, over 40 µM and over 40 µM.
Regarding `CC[C@H](C)[C@H](NC(=O)[C@H](CCCNC(=N)N)NC(=O)[C@H](CCCNC(=N)N)NC(=O)[C@@H](NC(=O)[C@H](C)NC(=O)[C@H](CCCNC(=N)N)NC(=O)[C@H](CCCNC(=N)N)NC(=O)[C@H](Cc1ccc(O)cc1)NC(=O)[C@@H](N)Cc1ccc(O)cc1)[C@@H](C)O)C(=O)N[C@@H](CCCNC(=N)N)C(=O)NCC(=O)NCC(=O)N[C@@H](CC(=O)O)C(=O)NCC(=O)N[C@@H](CCCCN)C(=O)O` [Ncl_P18], the IC50 at DQA1*03:01 DQB1*03:02, on DQA1*01:01 DQB1*05:01, at DQA1*01:02 DQB1*06:02 and against DQA1*05:01 DQB1*02:01 was over 40 µM each time.
